Laboratory results: US20010018065A1, “Compounds and methods for the treatment of bacterial dysentery using antibiotics and toxin binding oligosaccharide compositions” (priority 1998, published 2001)

System: E. coli O157:H7 (EEU 396)
Experiment: Minimum inhibitory concentration (NCCLS M7-A2) for E. coli O157:H7
Assay type: cell-based
Conditions: E. coli O157:H7 (EEU396); for MIC: Escherichia coli

Row | Structure (SMILES) | Minimum Inhibitory Concentration [µg/mL] | MIC [µg/mL]
1 | CO[C@@]12[C@H](COC(N)=O)C3=C(C(=O)C(C)=C(N)C3=O)N1C[C@@H]1N[C@@H]12 [Mitomycin-C] | 9.6 | –
2 | O=C(O)c1cn(C2CC2)c2cc(N3CCNCC3)c(F)cc2c1=O [Ciprofloxacin] | – | 0.192 (≈ 0.579 µM)
3 | C=CC1=C(C(=O)O)N2C(=O)[C@@H](NC(=O)/C(=N\OCC(=O)O)c3csc(N)n3)[C@H]2SC1 [Cefixime] | – | 4.8 (≈ 10.6 µM)
4 | CN(C)[C@@H]1C(O)=C(C(N)=O)C(=O)[C@@]2(O)C(O)=C3C(=O)c4c(O)cccc4[C@@](C)(O)[C@H]3C[C@@H]12 [Tetracycline] | – | 1.92 (≈ 4.32 µM)

Values after ≈ are worked out from the molar mass of the structure shown.
